The values below come from ChEMBL document CHEMBL4371047, “Effect of α-Methoxy Substitution on the Anti-HIV Activity of Dihydropyrimidin-4(3 H)-ones” (J Med Chem, 2019).

The test deals with Human immunodeficiency virus type 1 reverse transcriptase (Human immunodeficiency virus 1) (UniProt Q72547).

Take `CCC(C)Sc1nc(C(C)c2c(F)cccc2Cl)c(C)c(=O)[nH]1` (stereo unspecified): the ID50 was 0.3 nM.
